Assay results reported in ChEMBL document CHEMBL3286172, “Exploring the role of 2-chloro-6-fluoro substitution in 2-alkylthio-6-benzyl-5-alkylpyrimidin-4(3H)-ones: effects in HIV-1-infected cells and in HIV-1 reverse transcriptase enzymes” (J Med Chem, 2014).

How the values were obtained:
[1] = tested on: Human immunodeficiency virus type 1 reverse transcriptase (Human immunodeficiency virus 1), Q72547 [Y181I]
[2] = tested on: Human immunodeficiency virus type 1 reverse transcriptase (Human immunodeficiency virus 1), Q72547 [L100I]
[3] = tested on: Human immunodeficiency virus 1; assay: Fold resistance, ratio of EC50 for HIV-1 harboring NNTRI-resistant reverse transcriptase K103N mutant infected in human MT4 cells to EC50 for wild type HIV-1 NL4-3 infected in human MT4 cells; type: functional
[4] = tested on: Human immunodeficiency virus 1; assay: Fold resistance, ratio of EC50 for HIV-1 harboring NNTRI-resistant reverse transcriptase Y181C mutant infected in human MT4 cells to EC50 for wild type HIV-1 NL4-3 infected in human MT4 cells; type: functional
In short: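 MT-4 cells infected with HIV-1 mutant (K103N or Y181C) or wild-type NL4-3, with drug present. […] Fold resistance is the mutant EC50 divided by the wild-type NL4-3 EC50. EC50 values are means of at least two experiments.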

[5] = tested on: Human immunodeficiency virus 1; assay: Fold resistance, ratio of EC50 for HIV-1 harboring NNTRI-resistant reverse transcriptase Y188L mutant infected in human MT4 cells to EC50 for wild type HIV-1 NL4-3 infected in human MT4 cells; type: functional
In short: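 HIV-1 NL4-3 (wt) or Y188L mutant infection of MT-4 cells across a range of drug concentrations. Viable cells were counted by MTT at day 5 post-infection. […] Fold resistance is mutant EC50 over wt EC50. Means of at least two experiments.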

[6] = tested on: Human immunodeficiency virus 1; assay: Fold resistance, ratio of ID50 for HIV-1 recombinant NNTRI-resistant reverse transcriptase Y181I mutant to ID50 for wild type HIV-1 recombinant reverse transcriptase
In short: (§1)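 Recombinant wt or mutant HIV-1 RT, purified to >95%, at 2-4 nM. RNA-dependent DNA polymerase activity with 0.5 µg poly(rA)/oligo(dT)10:1 (0.3 µM 3'-OH ends), 10 µM [3H]-dTTP and 8% final DMSO. Incorporation was sampled at 2-min intervals. ID50 came from fitting to a fully non-competitive model. Ratio is ID50 mutant/ID50 wt. Means of at least three experiments.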

[7] = tested on: Human immunodeficiency virus 1; assay: Fold resistance, ratio of ID50 for HIV-1 recombinant NNTRI-resistant reverse transcriptase L100I mutant to ID50 for wild type HIV-1 recombinant reverse transcriptase
In short: as §1

SMILES	ID50 [1]	further results
CC[C@@H](C)Sc1nc([C@@H](C)c2c(F)cccc2Cl)cc(=O)[nH]1	> 20 µM	pID50 [1]: < 4.7; ID50 [2]: 0.148 µM
CCC(c1nc(SC(C)C)[nH]c(=O)c1C)c1c(F)cccc1Cl (racemic)	7.7 µM	–
CC[C@@H](C)Sc1nc([C@@H](C)c2c(F)cccc2Cl)c(C)c(=O)[nH]1	> 40 µM	Ratio EC50 [3]: 135; Ratio EC50 [4]: 811; Ratio EC50 [5]: 3006; pID50 [1]: < 4.4; ID50 [2]: 0.524 µM
CC[C@H](C)Sc1nc([C@H](C)c2c(F)cccc2Cl)c(C)c(=O)[nH]1 (racemic)	> 40 µM	Ratio EC50 [4]: 58407; pID50 [1]: < 4.4; ID50 [2]: 0.596 µM
CCCCSc1nc(C(CC)c2c(F)cccc2F)c(C)c(=O)[nH]1 (racemic)	4.6 µM	–
CC[C@H](C)Sc1nc([C@H](C)c2c(F)cccc2Cl)cc(=O)[nH]1 (racemic)	> 20 µM	pID50 [1]: < 4.7; ID50 [2]: 0.649 µM
CCCCSc1nc(C(CC)c2c(F)cccc2Cl)c(C)c(=O)[nH]1 (racemic)	6.1 µM	–
CCc1c(C(C)c2c(F)cccc2F)nc(SC2CCCC2)[nH]c1=O (racemic)	1.8 µM	–
CCCCSc1nc(C(C)c2c(F)cccc2Cl)cc(=O)[nH]1 (racemic)	15.2 µM	Ratio EC50 [3]: 3667; Ratio EC50 [4]: 13000; Ratio EC50 [5]: 18667; Ratio [6]: 1520
Cc1c(C(C)c2c(F)cccc2Cl)nc(SC(C)C)[nH]c1=O (racemic)	–	Ratio EC50 [3]: 4667; Ratio EC50 [4]: 8333; Ratio EC50 [5]: 113333
CCC(C)Sc1nc(C(CC)c2c(F)cccc2F)c(C)c(=O)[nH]1 (racemic)	4 µM	–
CCc1c(C(C)c2c(F)cccc2Cl)nc(SC2CCCC2)[nH]c1=O (racemic)	15.6 µM	–
Cc1c([C@@H](C)c2c(F)cccc2Cl)nc(SC(C)C)[nH]c1=O	> 40 µM	Ratio [7]: 0.4; ID50 [2]: 1.49 µM
CCC(c1nc(SC(C)C)[nH]c(=O)c1C)c1c(F)cccc1F (racemic)	4.1 µM	–
CCc1c(C(C)c2c(F)cccc2F)nc(SC(C)CC)[nH]c1=O (racemic)	4.6 µM	–
CC[C@H](C)Sc1nc([C@@H](C)c2c(F)cccc2Cl)cc(=O)[nH]1	> 20 µM	pID50 [1]: < 4.7; ID50 [2]: 2.22 µM
CCC(C)Sc1nc(C(C)c2c(F)cccc2Cl)c(C)c(=O)[nH]1 (racemic)	35 µM	Ratio EC50 [3]: 1067; Ratio EC50 [4]: 1300; ID50 [2]: 0.075 µM
CCC(c1nc(SC2CCCC2)[nH]c(=O)c1C)c1c(F)cccc1Cl (racemic)	6 µM	–
CCc1c(C(C)c2c(F)cccc2Cl)nc(SC(C)CC)[nH]c1=O (racemic)	16.2 µM	–
CCCCSc1nc(O)c(C)c(C(C)c2c(F)cccc2F)n1 (racemic)	4.6 µM	–
CCCCSc1nc(C(C)c2c(F)cccc2Cl)c(C)c(=O)[nH]1 (racemic)	60 µM	–

SMILES	ID50 [1]	further results
CCC(c1nc(SC2CCCC2)[nH]c(=O)c1C)c1c(F)cccc1F (racemic)	4.9 µM	–
CCCSc1nc(C(CC)c2c(F)cccc2Cl)c(C)c(=O)[nH]1 (racemic)	3.5 µM	–
CCCCSc1nc(C(C)c2c(F)cccc2Cl)c(CC)c(=O)[nH]1 (racemic)	13.1 µM	–
CCCSc1nc(C(C)c2c(F)cccc2F)c(C)c(=O)[nH]1 (racemic)	5.4 µM	–
CCCSc1nc(C(C)c2c(F)cccc2Cl)c(CC)c(=O)[nH]1 (racemic)	4.7 µM	–
CC[C@@H](C)Sc1nc([C@H](C)c2c(F)cccc2Cl)c(C)c(=O)[nH]1	3.55 µM	Ratio EC50 [3]: 14; Ratio EC50 [4]: 79; Ratio EC50 [5]: 351; pID50 [1]: 5.45; ID50 [2]: 0.041 µM
CCC(C)Sc1nc(O)c(C)c(C(C)c2c(F)cccc2F)n1 (racemic)	96 µM	–
CCC(C)Sc1nc(C(C)c2c(F)cccc2Cl)cc(=O)[nH]1 (racemic)	21.1 µM	ID50 [2]: 0.2 µM
CC[C@@H](C)Sc1nc([C@H](C)c2c(F)cccc2Cl)cc(=O)[nH]1	14.1 µM	pID50 [1]: 4.85; ID50 [2]: 0.0687 µM
CCCSc1nc(C(CC)c2c(F)cccc2F)c(C)c(=O)[nH]1 (racemic)	3.6 µM	–
Cc1c([C@H](C)c2c(F)cccc2Cl)nc(SC(C)C)[nH]c1=O	21.2 µM	Ratio EC50 [3]: 333; Ratio EC50 [4]: 5000; Ratio EC50 [5]: 11667; ID50 [2]: 0.177 µM
CC[C@H](C)Sc1nc([C@@H](C)c2c(F)cccc2Cl)c(C)c(=O)[nH]1	> 40 µM	pID50 [1]: < 4.4; ID50 [2]: 0.913 µM
CCc1c(C(C)c2c(F)cccc2Cl)nc(SC(C)C)[nH]c1=O (racemic)	27 µM	–
CCc1c(C(C)c2c(F)cccc2F)nc(SC(C)C)[nH]c1=O (racemic)	129 µM	–
CCCSc1nc(C(C)c2c(F)cccc2Cl)cc(=O)[nH]1 (racemic)	15 µM	–
CCCSc1nc(C(C)c2c(F)cccc2F)c(CC)c(=O)[nH]1 (racemic)	2.8 µM	–
CCCCSc1nc(C(C)c2c(F)cccc2F)c(CC)c(=O)[nH]1 (racemic)	3 µM	–
CCC(C)Sc1nc(C(CC)c2c(F)cccc2Cl)c(C)c(=O)[nH]1 (racemic)	5.9 µM	–
Cc1c(O)nc(SC(C)C)nc1C(C)c1c(F)cccc1F (racemic)	47 µM	–
CC(C)Sc1nc(C(C)c2c(F)cccc2Cl)cc(=O)[nH]1 (racemic)	10 µM	–
CC(c1cc(=O)[nH]c(SC2CCCC2)n1)c1c(F)cccc1Cl (racemic)	16.6 µM	–
